# PubChem BioAssay AID504761 | Drosophila RNAi Screening Center | 2011
# Aim: 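Fly genes whose silencing reduces dengue virus type 2 infection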 (primary screen)
# System: D.Mel-2 cells from Drosophila
# Reagent: long dsRNA against Drosophila genes
# Treatment: infection with dengue virus type 2; dose and infection time not stated
# Detection: 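Per well on two replicate plates, imaging gave the percent of cells positive for viral envelope protein, ranked by infection, and a nuclear count of cells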
# Reading the numbers: infection score: higher = more virus-infected cells; cell count: higher = more cells in the well
# Hit rule: 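Low infection ranks in the two replicates (chance level up to 0.065) followed by a retest with a 1.5-fold or larger significant decrease, p below 0.05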
# Meaning of the calls: active = confirmed: knock-down lowers infection; inactive = not picked or not confirmed
# The deposit covers about 22,000 reagents; shown is a random part of those that have a named target and a result. In the full data, 116 (0.52%) are marked active. 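Calls depend on retest data that are not deposited; infection was ranked per plate without normalising between plates; the unit of the infection score is not given.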 Raw values are not corrected between plates. Names joined by + are all predicted targets of the reagent. No sequences are given here. Not stated in the record: the amount of reagent, the time to read-out.
gene knocked down,amplicon,"infection score, replicate 1","infection score, replicate 2","cell count, replicate 1","cell count, replicate 2",activity call
CG3032 (GeneID 31648),DRSC18266,9.22,25.7,1388,5312,inactive
CG3032 (GeneID 31648),DRSC24426,1.78,2.56,6672,6331,inactive
nrv2 (GeneID 33953),DRSC00948,4.78,0.7,6208,5872,inactive
nrv2 (GeneID 33953),DRSC03383,10.9,13.7,5739,5432,inactive
CG33771 (GeneID 3772424),DRSC11718,1.15,2.49,7045,6263,inactive
CG6465 (GeneID 41274),DRSC16046,7.11,9.21,5866,6349,inactive
CG6465 (GeneID 41274),DRSC25671,8.27,23.4,3592,4300,inactive
CG34148 + P5CDh2,DRSC13519,0.59,1.45,6278,6151,inactive
Tcs6 + PIG-P,DRSC13742,0.22,0.47,6335,6154,inactive
Tcs6 + PIG-P,DRSC14893,16.2,,6177,248,inactive
Dgp-1 (GeneID 37080),DRSC07400,16.5,7.41,5709,6408,inactive
CG10000 (GeneID 43394),DRSC14170,2.21,10.4,6297,6179,inactive
CG10000 (GeneID 43394),DRSC29791,5.55,4.3,6381,5675,inactive
CG1801 (GeneID 33104),DRSC20556,6.36,7.62,5740,5614,inactive
CG14995 (GeneID 38487),DRSC22991,1.06,22.7,5944,4653,inactive
CG7668 (GeneID 40190),DRSC10901,0.69,9.96,289,6670,inactive
Osi1 (GeneID 40752),DRSC12271,7.48,4.62,6254,6597,inactive
CG5080 (GeneID 33299),DRSC00677,2.4,0.65,6345,6661,inactive
CG18178 (GeneID 39138),DRSC10302,2.59,3.92,6337,6741,inactive
CG14641 (GeneID 40529),DRSC12227,6.02,8.18,2855,978,inactive
CG14641 (GeneID 40529),DRSC26839,3.76,5.69,3302,3162,inactive
fz4 (GeneID 31659),DRSC18780,1.87,4.38,5984,5956,inactive
Galphas (GeneID 37805),DRSC04616,14.7,32.7,6235,5602,inactive
CG1537 (GeneID 32037),DRSC19662,8.66,16.2,4490,6280,inactive
CG13127 (GeneID 34335),DRSC02223,1.57,3.27,6682,6853,inactive
CG13127 (GeneID 34335),DRSC29726,6.56,7.78,6338,6378,inactive
Taf12L (GeneID 33672),DRSC00467,4.79,4.78,6641,6656,inactive
CG13992 (GeneID 33831),DRSC02324,2.63,9.23,6276,5896,inactive
Vti1b (GeneID 42215),DRSC16283,1.27,2.11,6007,6534,inactive
Vti1b (GeneID 42215),DRSC16284,2.93,4.66,6487,6055,inactive
vari (GeneID 35343),DRSC03202,16.5,5.93,4923,6461,inactive
CG14015 (GeneID 33780),DRSC02346,1.99,4.02,6891,6587,inactive
CG14015 (GeneID 33780),DRSC26031,9.28,1.81,6444,6145,inactive
nub (GeneID 34669),DRSC02498,0.55,1.59,6309,6103,inactive
nub (GeneID 34669),DRSC03583,13.5,1.73,4447,5825,inactive
nub (GeneID 34669),DRSC23066,0.77,2.89,6396,6306,inactive
nub (GeneID 34669),DRSC25610,3.71,4.7,6356,6024,inactive
nub (GeneID 34669),DRSC27113,39,9.97,5449,1444,inactive
nub (GeneID 34669),DRSC28839,0.44,,456,274,inactive
Dcr-2 (GeneID 36993),DRSC06992,21.4,21.1,4192,6762,inactive
Dcr-2 (GeneID 36993),DRSC29436,19.8,15.3,2910,4916,inactive
dcma (GeneID 5740672),DRSC00246,1.71,6.03,6767,6430,inactive
dcma (GeneID 5740672),DRSC00338,10.7,5.45,747,6606,inactive
CG17234 (GeneID 59225),DRSC00490,8.34,2.99,5875,6349,inactive
CG14265 (GeneID 31297),DRSC18591,2.98,1.17,5904,6335,inactive
CG14265 (GeneID 31297),DRSC29212,18.9,4.35,4761,598,inactive
CG13101 (GeneID 34221),DRSC02201,16.5,19.4,5907,6019,inactive
Rdl (GeneID 39054),DRSC11264,11.5,22.1,3350,5151,inactive
Rdl (GeneID 39054),DRSC27696,11.3,19.9,6849,6591,inactive
Psn (GeneID 40260),DRSC11743,9.44,14.2,6008,5864,inactive
Bub1 (GeneID 33758),DRSC23158,1.51,1.83,7267,6930,inactive
Bub1 (GeneID 33758),DRSC27436,9.08,12.5,6144,6798,inactive
shot (GeneID 36542),DRSC05459,2.97,1.43,6168,5445,inactive
shot (GeneID 36542),DRSC05460,6.37,6.54,6410,6177,inactive
shot (GeneID 36542),DRSC07682,32.3,20.7,5751,5976,inactive
shot (GeneID 36542),DRSC25070,4.78,0.93,5716,6027,inactive
tal-1A + tal-2A + tal-AA + 1 more,DRSC12992,2.33,0.41,6213,6143,inactive
p47 (GeneID 35674),DRSC06046,5.24,12.9,7220,6334,inactive

An excerpt from the list above, as a working copy:
gene knocked down,amplicon,"infection score, replicate 1","infection score, replicate 2","cell count, replicate 1","cell count, replicate 2",activity call
CG7668 (GeneID 40190),DRSC10901,0.69,9.96,289,6670,inactive
Osi1 (GeneID 40752),DRSC12271,7.48,4.62,6254,6597,inactive
CG5080 (GeneID 33299),DRSC00677,2.4,0.65,6345,6661,inactive
CG18178 (GeneID 39138),DRSC10302,2.59,3.92,6337,6741,inactive
CG14641 (GeneID 40529),DRSC12227,6.02,8.18,2855,978,inactive
CG14641 (GeneID 40529),DRSC26839,3.76,5.69,3302,3162,inactive
fz4 (GeneID 31659),DRSC18780,1.87,4.38,5984,5956,inactive
